Publication PMC9095892 (The Journal of Biological Chemistry, 2022)

Key:
CBU1838 (CbCBU1838) [1] = molecular target: T1, CBU1838 (CbCBU1838) (Coxiella burnetii, UniProt Q83AP3); experiment: X-ray crystal structure of the complex; details: nucleotide part of the active site; residues from both protomers; citrate in the sugar site
CBU1838 (CbCBU1838) [2] = molecular target: T1, CBU1838 (CbCBU1838); experiment: coupled to EcRmlD, NADPH oxidation at […] nm; details: 50 mM Hepes pH 7.5, 20 mM MgCl2, NADPH; 30 °C in methods, 37 °C in discussion

Row | SMILES | X-ray crystal structure of the complex (CBU1838 (CbCBU1838) [1]) | Km (CBU1838 (CbCBU1838) [2]) [µM]
1 | Cc1cn([C@H]2C[C@H](O)[C@@H](COP(=O)(O)OP(=O)(O)O)O2)c(=O)[nH]c1=O | The CBU1838-TDP structure showed a citrate molecule (carried over from crystallization) bound | –
2 | Cc1cn([C@H]2C[C@H](O)[C@@H](COP(=O)(O)OP(=O)(O)O[C@H]3O[C@H](C)C(=O)[C@H](O)[C@H]3O)O2)c(=O)[nH]c1=O | – | 2000
